Measured values reported in US6150511 (Fox Chase Cancer Center).

Experiments:
LIN 18-286 = target: T1, LIN 18-286 (Escherichia coli? / Avian sarcoma virus, UniProt P0A7C2;P03354 P0A7C2:1-87,P03354:1298-1566)
T1 chain 1: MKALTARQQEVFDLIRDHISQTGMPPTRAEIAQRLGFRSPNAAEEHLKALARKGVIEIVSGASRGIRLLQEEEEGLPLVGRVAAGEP
T1 chain 2: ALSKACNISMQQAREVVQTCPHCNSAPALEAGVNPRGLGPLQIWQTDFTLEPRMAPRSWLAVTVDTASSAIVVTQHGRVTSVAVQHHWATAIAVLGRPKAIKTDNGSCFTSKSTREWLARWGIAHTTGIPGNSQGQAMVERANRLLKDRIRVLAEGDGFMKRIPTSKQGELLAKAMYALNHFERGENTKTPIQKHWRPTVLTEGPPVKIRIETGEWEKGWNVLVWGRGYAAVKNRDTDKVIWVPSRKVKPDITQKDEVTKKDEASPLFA

[1] = target: T2, C-LIN (LexA DBD 1-87 fused to C-terminus of ASV IN) (Escherichia coli? / Avian sarcoma virus, UniProt P03354;P0A7C2 P03354:1281-1566,P0A7C2:1-87)
T2 chain 1: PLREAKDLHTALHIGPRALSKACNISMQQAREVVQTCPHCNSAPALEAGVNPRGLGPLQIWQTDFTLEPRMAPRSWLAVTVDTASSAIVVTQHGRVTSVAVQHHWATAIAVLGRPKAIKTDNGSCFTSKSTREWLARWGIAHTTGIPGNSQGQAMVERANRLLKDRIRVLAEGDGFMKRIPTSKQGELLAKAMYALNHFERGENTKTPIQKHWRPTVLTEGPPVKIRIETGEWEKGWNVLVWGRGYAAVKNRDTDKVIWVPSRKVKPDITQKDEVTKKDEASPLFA
T2 chain 2: T1 chain 1

[2] = target: T3, N-LIN (LexA DBD 1-87 fused to N-terminus of ASV IN) (Escherichia coli? / Avian sarcoma virus, UniProt P0A7C2;P03354 P0A7C2:1-87,P03354:1281-1566)
T3 chain 1: T1 chain 1
T3 chain 2: T2 chain 1

Measured: binding result

B1: tandem lexA operator segment (in pBR711-2) (dsDNA)
chain 1: GGGGTCGACATTACTGTATATATATACAGCATAACTGTATATATATACAGTATAGGATCCGGG
chain 2: CCCGGATCCTATACTGTATATATATACAGTTATGCTGTATATATATACAGTAATGTCGACCCC
binds: all assays above
